Pooled drug test results. Numbers come from NIAID ChemDB, via PubChem.

Shared fields: host cell toxicity; measure: CC50

CCn is the concentration with n% toxicity to the cells.

compound | cells | read by | value
O=C(Nc1cccc(F)c1)NC1N=C(c2ccccc2)c2ccccc2NC1=O | HEP-2 |  | 6.1 µM
CCOC(=O)c1ccc2nc(-c3ccc(O)cc3O)[nH]c2c1 | Vero cell | MTT | >62.5 µg/mL
Nc1cc(OCCOCP(=O)(O)O)nc(N)n1 | HEPAD79 |  | >379 µM
COc1cc([C@@H]2c3cc4c(cc3[C@H](OC(C)=O)[C@@H]3COC(=O)[C@@H]23)OCO4)cc(O)c1O | MEL-28 |  | 5.84 µM
Nc1nc(OCCOCP(=O)(O)O)cc(OCCOCP(=O)(O)O)n1 | CCRF-CEM |  | <10 µM
CCOC(=O)c1ccc2c(c1)nc(-c1ccc(Cl)cc1)n2CCN1CCCOC1 | Vero cell | MTT | >62.5 µg/mL
C[C@H](COc1cc(N)nc(N)n1)OCP(=O)(O)O | HepAD38 |  | >360 µM
COc1ccc(C(=O)NC2N=C(c3cccc(C(F)(F)F)c3)c3ccccc3NC2=O)cc1 | HEP-2 |  | 9 µM
COC(=S)P(=S)(OC)OC | BCBL-1 |  | >200 µM
O=C(/C=C/c1ccc(O)c(O)c1)[Se]c1ccccc1 | HLE | WST | >100 µM
CCCCCCCCCC(=O)O[C@H]1C[C@H](n2cc(/C=C/Br)c(=O)[nH]c2=O)O[C@@H]1COP1(=O)OCc2cccc(C)c2O1 | HELF |  | 71.2 µg/mL
COP(=O)(OC)C(=S)SC | BCBL-1 |  | >200 µM
COc1cc([C@@H]2c3cc4c(cc3[C@H](OC(C)=O)[C@@H]3COC(=O)[C@H]23)OCO4)cc2c1OCCO2 | P-388 |  | 2.2 µM
CCCCCCCCCCCCCCCCOP(=O)([O-])OCC[n+]1ccccc1 | MDA | MTT | 45.8 µM
Nc1nc2c(ncn2CC(CF)OCP(=O)(O)O)c(=O)[nH]1 | HB611 |  | 22 µM
Nc1cc(OCCOCP(=O)(O)O)ncn1 | HepAD38 |  | >402 µM
CC(=O)O[C@H]1C[C@H](n2cc(/C=C/Br)c(=O)[nH]c2=O)O[C@@H]1COP1(=O)OCc2cccc(C)c2O1 | HELF |  | >128 µg/mL
Nc1nccc2c1ncn2C[C@@H](CO)OCP(=O)(O)O | HB611 |  | 32 µM
O=c1cc(-c2ccc(Oc3c(O)cc4oc(-c5ccc(O)cc5)cc(=O)c4c3O)cc2)oc2cc(O)cc(O)c12 | MA-104 | neutral red | 6 µg/mL
O=C(O)P(=O)(O)O | CBMC | MTT | 897 µM
Nc1ncnc2c1ncn2[C@@H]1O[C@H](CO)C[C@@H]1O | U138-MG |  | 42.5 µg/mL
Nc1nc(N)c(C=O)c(OCCOCP(=O)(O)O)n1 | HEPAD79 |  | >342 µM
Cc1cn([C@H]2C[C@H](NC(=O)NCCNc3ccnc4cc(Cl)ccc34)[C@H](CO)O2)c(=O)[nH]c1=O | HeLa cells | MTT | >100 µM
CCC/C=C1\OC(=O)C2=C1C=CCC2 | RAW 264.7 |  | 250 µg/mL
Cc1cc(C)c2c(c1)COP(=O)(OC[C@H]1O[C@@H](n3cc(/C=C/Br)c(=O)[nH]c3=O)C[C@@H]1O)O2 | HELF |  | 96 µg/mL
O=C1C(=O)N(CN2CCN(c3ccnc4cc(Cl)ccc34)CC2)c2cc(Br)ccc21 | Human foreskin fibroblasts | MTT / absorbance | 9.5 µM
COC(=S)P(=O)(OC)OC | BCBL-1 |  | >200 µM
CC(NC(=O)OC(C)(C)C)C(=O)O/N=C1\c2ccccc2-c2c1c(N1CCN(c3ccccn3)CC1)nc1ccc(Br)cc21 | U-937 | MTT | >10 µg/mL
Cc1cccc2c1OP(=O)(OC[C@H]1O[C@@H](n3cc(/C=C/Br)c(=O)[nH]c3=O)C[C@@H]1OC(=O)[C@@H](N)CC(C)C)OC2 | HELF |  | >128 µg/mL
COc1ccc(/C=C/C=C/C(=O)[Se]c2ccccc2)cc1 | Li-7 | WST | >100 µM
CCCCC1OC(=O)c2ccccc21 | RAW 264.7 |  | 200 µg/mL
CCOC(=O)c1ccc2c(c1)nc(-c1ccc(O)cc1)n2CCN1CCCC1=O | Vero cell | MTT | >62.5 µg/mL
O=C1Nc2ccccc2C(c2ccccc2)=NC1NCc1ccc(C(F)(F)F)cc1 | VERO |  | 50 µM
CC(C)OP(=O)(COCCn1cnc2c(N)ncnc21)OC(C)C | HB611 |  | <34 µM
O=c1[nH]c(=O)n([C@H]2C[C@H](O)[C@@H](CO)O2)cc1C(F)(F)F | HSB-2 | MTT | 20 µM
CCCCC1=NC(N)=C2NC=NC2(O)N1OCP(=O)(O)O | HB611 |  | 92 µM
CC(C)CCCC(C)C1CCC2C3CC=C4CC(OC(=O)CCC(=O)O)CCC4(C)C3CCC12C | HeLa |  | >200 µg/mL
CCOC(=O)c1ccc2c(c1)nc(-c1ccc(Br)cc1)n2CCN1CCCC1=O | Vero cell | MTT | >62.5 µg/mL
O=C(O)CP(=O)(O)O | HSB-2 | MTT | 51 µM
CCCCCCCCCCCCCCCCOP(=O)([O-])OCCC[N+](C)(C)C | MDA | MTT | 61.7 µM
CCC(=O)O[C@H]1C[C@H](n2cc(/C=C/Br)c(=O)[nH]c2=O)O[C@@H]1COP1(=O)OCc2cccc(C)c2O1 | HELF |  | 91.5 µg/mL
Nc1nc2c(ncn2/C=C2/CC2(CO)CO)c(=O)[nH]1 | HeLaP4 |  | 0.061 µM
Nc1ncnc2c1ncn2C[C@@H](CO)OCP(=O)(O)O | H4 |  | 20 µg/mL
CC(=O)Oc1ccc([C@@H]2CC(=O)c3c(cc(OC(C)=O)c(-c4c(OC(C)=O)cc5c(c4OC(C)=O)C(=O)C[C@@H](c4ccc(OC(C)=O)cc4)O5)c3OC(C)=O)O2)cc1 | BSC-1 | neutral red | <200 µg/mL
O=C(NC1N=C(c2ccccc2)c2ccccc2NC1=O)C(=O)c1cccs1 | HEP-2 |  | 9.5 µM
O=c1cc(-c2ccc(O)c(-c3c(O)cc(O)c4c(=O)cc(-c5ccc(O)cc5)oc34)c2)oc2cc(O)cc(O)c12 | BSC-1 | visual reading | <10 µg/mL
FC(F)(F)c1ccc2c(NCCCN3CCC(c4ccccc4)CC3)ccnc2c1 | Human foreskin fibroblasts | MTT / absorbance | 3 µM
COC(=O)[C@H]1[C@@H]2CON=C2c2cc3c(cc2[C@H]1C1=CC(=O)C(=O)C(OC)=C1)OCO3 | P-388 |  | 12 µM
CN(C)CCNc1ncnc2c1ncn2CCOCP(=O)(O)O | P3HR-1 |  | >100 µg/mL
CCCCCCCCCCCCCCOC(=O)P(=O)([O-])OC | BCBL-1 |  | >63.4 µM
N#Cc1c(N)nc(N)nc1OCCOCP(=O)(O)O | HepAD38 |  | >346 µM
Nc1cc(OCCOCP(=O)(O)O)nc(N)n1 | L1210 |  | <10 µM
Cc1cn([C@H]2C[C@H](N=[N+]=[N-])[C@@H](CO)O2)c(=O)[nH]c1=O | P3HR-1 |  | 53 µg/mL
N[C@H]1[C@@H](O[C@@H]2[C@@H](O)[C@H](O[C@H]3OC[C@@H](O)[C@H](O)[C@H]3N)[C@@H](N)C[C@H]2N)O[C@H](CO)[C@@H](O)[C@@H]1O | HeLa |  | >100 µg/mL
CCC(C)C(N)C(=O)O[C@H]1C[C@H](n2cc(/C=C/Br)c(=O)[nH]c2=O)O[C@@H]1COP1(=O)OCc2cccc(C)c2O1 | HELF |  | 58.5 µg/mL
CCCCCCCCCCCCCCCCOP(=O)([O-])OCC[N+](C)(C)Cc1ccccc1 | MDA | MTT | 44.3 µM
CC(C)(C)OC(=O)NC(C(=O)O/N=C1\c2ccccc2-c2c1c(N1CCN(c3ccccn3)CC1)nc1ccc(Br)cc21)C(C)(C)C | U-937 | MTT | >20 µg/mL
Nc1nc2ncn(CCOCP(=O)(O)O)c2c(=O)[nH]1 | HB611 |  | 20 µM
CCCCCCCCCCCCCCCCOP(=O)([O-])OCCC[N+](C)(C)Cc1ccccc1 | MCF | MTT | 57.6 µM
COC(=O)[C@@H]1[C@H](c2cc(OC)c(OC(C)=O)c(OC(C)=O)c2)c2cc3c(cc2C2=NOC[C@@H]21)OCO3 | MEL-28 |  | 20 µM
C[S@@](=O)CCCCN=C=S | HA | WST | 11.17 µM
NCCNc1ccnc2cc(Cl)ccc12 | HeLa cells | MTT | 63.44 µM
CN1CCc2cc3c(cc2[C@H]1[C@H]1OC(=O)c2c1ccc1c2OCO1)OCO3 | KB cells |  | >10 µg/mL
CCC/C=C1\OC(=O)c2ccccc21 | RAW 264.7 |  | 250 µg/mL
COC(=O)[C@@H]1[C@H](c2cc(OC)c3nccnc3c2)c2cc3c(cc2C2=NOC[C@@H]21)OCO3 | HT-29 |  | 2.8 µM
COC[C@@H](c1ccc(C(F)(F)F)cc1)N1CCN(C2(C)CCN(C(=O)c3c(C)ncnc3C)CC2)C[C@@H]1C | PM1 | MTT / absorbance | >5 µM
Nc1ncnc2c1ncn2[C@@H]1O[C@H](COP(=O)(O)OS(=O)(=O)O)[C@@H](O)[C@H]1O | HeLa |  | >1000 µM
Cc1cccc2c1OP(=O)(OC[C@H]1O[C@@H](n3cc(/C=C/Br)c(=O)[nH]c3=O)C[C@@H]1O)OC2 | HELF |  | >128 µg/mL
NC(=S)N=Nc1c(O)n(CN2CCN(c3ccnc4cc(C(F)(F)F)ccc34)CC2)c2cc(Cl)ccc12 | Human foreskin fibroblasts | MTT / absorbance | 4.75 µM
Nc1nc(N)c2ncn(CCOCP(=O)(O)O)c2n1 | HB611 |  | 122 µM
COC(=O)[C@H]1C2CON=C2c2cc3c(cc2[C@H]1c1cc(OC)c(OC)c(OC)c1)OCO3 | MEL-28 |  | 5.7 µM
C[C@H](Cn1cnc2ncnc(N(C)C)c21)OCP(=O)(O)O | P3HR-1 |  | 45 µg/mL
NCCCCCNc1ccnc2cc(Cl)ccc12 | HeLa cells | MTT | 56.64 µM
COc1cc([C@@H]2c3cc4c(cc3[C@H](OC(C)=O)[C@@H]3COC(=O)[C@@H]23)OCO4)cc2nc3ccccc3nc12 | HT-29 |  | 1 µM
NC(=S)N=Nc1c(O)n(CN2CCN(c3ccnc4cc(Cl)ccc34)CC2)c2cc(Br)ccc12 | Human foreskin fibroblasts | MTT / absorbance | 2.8 µM
CN1CCc2cc3c(cc2[C@@H]1[C@@H]1OC(=O)c2c1ccc1c2OCO1)OCO3 | Vero cells |  | >20 µg/mL
CCCCC/C=C/C/C=C/CCCCCCCCO | HeLa |  | 25 µg/mL
O=P(O)(O)COCCn1cnc2c(NC3CCCCC3)ncnc21 | P3HR-1 |  | >100 µg/mL
CC(C)(C)OC(=O)NCC(=O)O/N=C1\c2ccccc2-c2c1c(N1CCN(c3ccccn3)CC1)nc1ccc(Br)cc21 | U-937 | MTT | >10 µg/mL
CCOC(=O)c1ccc2nc(-c3cncc(-c4ccc(F)cc4)c3)[nH]c2c1 | Vero cell | MTT | >62.5 µg/mL
CC(C)(C)OC(=O)N1CCCC1C(=O)O/N=C1\c2ccccc2-c2c1c(-n1ccnc1)nc1ccc(Br)cc21 | U-937 | MTT | >20 µg/mL
Cc1cn([C@H]2C[C@H](NC(=O)CC3CCC4(CC3)OOC3(OO4)C4CC5CC(C4)CC3C5)[C@H](CO)O2)c(=O)[nH]c1=O | HeLa cells | MTT | 23.38 µM
COc1cc(/C=C/C(=O)[Se]c2ccccc2)ccc1O | HLE | WST | >100 µM
Cc1cc(OCCOCP(=O)(O)O)nc(N)n1 | L1210 |  | <10 µM
O=c1[nH]cnc2c1ncn2[C@H]1CC[C@@H](CO)O1 | HELA-CD4+ |  | 1.8 µM
O=C(/C=C/C=C/c1ccc([N+](=O)[O-])cc1)[Se]c1ccccc1 | Li-7 | WST | >100 µM
CSc1nc(N)cc(OCCOCP(=O)(O)O)n1 | CCRF-CEM |  | <10 µM
Nc1nc2c(ncn2COC(CO)CO)c(=O)[nH]1 | CBMC | MTT | 159 µM
CCOC(=O)c1ccc2c(c1)nc(-c1ccc(OC)cc1)n2CCN1CCCOC1 | Vero cell | MTT | >62.5 µg/mL
Nc1nc(OCCOCP(=O)(O)O)cc(=O)[nH]1 | HeLa S3 |  | <10 µM
COc1cc([C@@H]2c3cc4c(cc3[C@H](OC(C)=O)[C@@H]3COC(=O)[C@@H]23)OCO4)cc2c1OC1(N3CCOCC3)CCCCC1O2 | MEL-28 |  | 8.66 µM
Cc1cc2c(C(C)C)c(O)c(O)c(C=O)c2c(O)c1-c1c(C)cc2c(C(C)C)c(O)c(O)c(C=O)c2c1O | HeLa |  | 100 µM
Nc1ncnc2c1ncn2C[C@H]1COP(=O)(O)CO1 | CBMC | MTT | 77 µM
COc1cc([C@@H]2c3cc4c(cc3[C@H](OC(C)=O)[C@@H]3COC(=O)[C@@H]23)OCO4)cc(OC)c1OC | P-388 |  | 0.55 µM

8 of the rows above, restated:

compound	cells	read by	value
CCCCC1OC(=O)c2ccccc21	RAW 264.7		200 µg/mL
O=c1cc(-c2ccc(O)c(-c3c(O)cc(O)c4c(=O)cc(-c5ccc(O)cc5)oc34)c2)oc2cc(O)cc(O)c12	BSC-1	visual reading	<10 µg/mL
Cc1cc(C)c2c(c1)COP(=O)(OC[C@H]1O[C@@H](n3cc(/C=C/Br)c(=O)[nH]c3=O)C[C@@H]1O)O2	HELF		96 µg/mL
Nc1cc(OCCOCP(=O)(O)O)ncn1	HepAD38		>402 µM
CC(=O)Oc1ccc([C@@H]2CC(=O)c3c(cc(OC(C)=O)c(-c4c(OC(C)=O)cc5c(c4OC(C)=O)C(=O)C[C@@H](c4ccc(OC(C)=O)cc4)O5)c3OC(C)=O)O2)cc1	BSC-1	neutral red	<200 µg/mL
NCCNc1ccnc2cc(Cl)ccc12	HeLa cells	MTT	63.44 µM
Nc1cc(OCCOCP(=O)(O)O)nc(N)n1	HEPAD79		>379 µM
COC(=O)[C@@H]1[C@H](c2cc(OC)c3nccnc3c2)c2cc3c(cc2C2=NOC[C@@H]21)OCO3	HT-29		2.8 µM

Lines come from different laboratories, so protocols vary. An empty or dashed field is not shown.